Laboratory results published in paper PMC7298706 (mBio, 2020).

T1: LukS240-259 fragment clone displayed on phage (Staphylococcus aureus (phage PVL …, UniProt O80066))
T1 chain: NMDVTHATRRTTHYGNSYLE


Experiments:
[1] = biological target: LukS168-259 fragment clone displayed on phage (Staphylococcus aureus (phage PVL …, UniProt O80066)); experiment: ELISA; conditions: both partners purified
[2] = biological target: T1, LukS240-259 fragment clone displayed on …; experiment: ELISA; conditions: both partners purified

Row | Binder | binding result [1] | binding result [2]
1 | anti-HlgC1 MAb (antibody, V domains shown, also called anti-HIgC1 MAb; source: murine B-cell hybridoma (BALB/c mice immunized with recombinant HlgC)) VH: QVQLLQSGAELVKPGASVQLSCKASGFTFTKHDINWVRQRPEQGLEWIGWIFPGDGNTKYNEKFKGKATLTTDKSSSTAYMQLNGLTSEDSAVYFCAKEIFYWGQGTSVTVSS VL: DIVMTQSPSSLTVTAGEKVTMSCKSSQSLLNSENQRNYLTWYQQKPGQPPKLLISWASTRESGVPDRFTGSGSGTDFTLTISSVQAEDLAVYYCQNDFSYPLTFGAGTKLELR | binds | binds
2 | anti-HlgC3 MAb (antibody, V domains shown, also called anti-HIgC3 MAb; source: murine B-cell hybridoma (BALB/c mice immunized with recombinant HlgC)) VH: QVQLLQSGAELVKPGASVQLSCKASGFTFTKYDINWVRQRPDQGLEWIGWIFPGDGNTKYNDKFKGKVILTTDKSSSTAYMQLSRLTSEDSAVYFCAREIFYWGQGTSVTVSA VL: DIVMTQSPSSLTVTAGEKVTMSCKSSQSLFNSENQRNYLTWYQQKPRQPPKLLISWASTRESEVPDRFTGSGSGTDFTLTISSVQAEDLAVYYCQNDYSYPLTFGAGTKLELR | binds | binds
3 | anti-HlgC4 MAb (antibody, V domains shown, also called anti-HIgC4 MAb; source: murine B-cell hybridoma (BALB/c mice immunized with recombinant HlgC)) VH: QVQLLQSGAELVKPGASVQLSCKASGFTFTKYDINWVRQRPDQGLEWIGWIFPGDGNTKYNDKFKGKVILTTDKSSSTAYMQLTRLTSEDSAVYFCAREIFYWGQGTSVTVSS VL: DIVMTQSPSSLTVTAGEKVTMSCKSSQSLLNSENQRNYLTWYQQKPGQPPKLLISWASTRESGVPDRFTGSGSGTDFTLTISSVQAEDLAVYYCQNDYSYPLTFGAGTKLELR | binds | binds
4 | anti-HlgC2 MAb (antibody, V domains shown, also called anti-HIgC2 MAb; source: murine B-cell hybridoma (BALB/c mice immunized with recombinant HlgC)) VH: QVQLKESGPGLVAPSQSLSITCTVSGFSLTNFAVHWVRQPRGKGLEWLGSIWADGRTIYSALMSRLSISKDNSKSQVFLNMNSLQTDDTAMYYCATPFYFGYDGGYAMDHWGQGTSVTVSS VL: DVLMTQTPLSLPVSLGDQASISCRSSQSIVHGSGNTYLEWYLQKPGQSPKLLIYKVSNRLSGVPDRISGSGSGTDFTLKINRVEAEDLGVYYCFQGSHVPYTFGGGTKLEMK | binds | binds
